PubChem BioAssay AID504761 – Drosophila RNAi Screening Center – 2011
In all, the deposit lists about 22,000 reagents; below is an unselected part of those that have a named target and a result. In the full data, 116 (0.52%) are marked active. 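Calls depend on retest data that are not deposited; infection was ranked per plate without normalising between plates; the unit of the infection score is not given.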 A number with no mark means an inactive call. Further read-outs or replicates are left out here. The record does not give: the amount of reagent, the time to read-out.

- Assay: 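Fly genes whose silencing reduces dengue virus type 2 infection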 (primary screen)
- Cells: D.Mel-2 cells from Drosophila
- Reagent: long dsRNA against Drosophila genes
- Conditions: infection with dengue virus type 2; dose and infection time not stated
- Read-out: 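Cells stained for dengue envelope protein and imaged; percent of infected cells per well on duplicate plates, ranked by infection, with stained nuclei counted for cell number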
- Reading the numbers: infection score: higher = more virus-infected cells
- Hit rule: 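Low infection ranks in the two replicates (chance level up to 0.065) followed by a retest with a 1.5-fold or larger significant decrease, p below 0.05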
- Calls: active = confirmed: knock-down lowers infection; inactive = not picked or not confirmed

Sirt6 (Sirtuin 6) [DRSC16010]
- infection score, replicate 1: 2.84

Sirt6 (Sirtuin 6) [DRSC29965]
- infection score, replicate 1: 27.3

CG7848 [DRSC07050]
- infection score, replicate 1: 11.8

HP5 (Heterochromatin protein 5) [DRSC19773]
- infection score, replicate 1: 3.13

HP5 (Heterochromatin protein 5) [DRSC27040]
- infection score, replicate 1: 10.7

CG7763 [DRSC07043]
- infection score, replicate 1: 5.6

Mctp (Multiple C2 domain and transmembrane region protein) [DRSC06510]
- infection score, replicate 1: 2.81

Mctp (Multiple C2 domain and transmembrane region protein) [DRSC22896]
- infection score, replicate 1: 1.7

Mctp (Multiple C2 domain and transmembrane region protein) [DRSC25505]
- infection score, replicate 1: 4.72

Mctp (Multiple C2 domain and transmembrane region protein) [DRSC28921]
- infection score, replicate 1: 24.9

rec (recombination-defective) [DRSC14998]
- infection score, replicate 1: 1.15

rec (recombination-defective) [DRSC15656]
- infection score, replicate 1: 1.01

CG2121 [DRSC06819]
- infection score, replicate 1: 19.2

CG2121 [DRSC06820]
- infection score, replicate 1: 1.47

Records above whose gene name begins with C or c (4):
CG7848 [DRSC07050]
- infection score, replicate 1: 11.8

CG7763 [DRSC07043]
- infection score, replicate 1: 5.6

CG2121 [DRSC06819]
- infection score, replicate 1: 19.2

CG2121 [DRSC06820]
- infection score, replicate 1: 1.47
